From patent US7435438B1, “Disinfectant and method of use” (Pure BioScience, priority 2003, dated 2008) come the findings set out here.

The data set relates to Legionella pneumophila serogroup 1.

Take silver dihydrogen citrate: the “eradication of Legionella compared with silver chloride solution (80 ppb)” value is given as “as effective as silver chloride solution (80 ppb)”.
